The text below walks through data of patent publication US20260021071A1, “SMALL MOLECULE BROAD-SPECTRUM ANTIBIOTICS” (University of Florida Research Foundation, Incorporated, priority 2022, published 2026).

Molecules are shown by their SMILES.

The subject of the series is wild-type HepG2 cells. The series is described as follows: HepG2 cytotoxicity assay (CellTiter-Glo, cellular ATP). The following applies: HepG2 cytotoxicity dose-response curve. (In ATP-based viability assays light output follows the ATP content of the culture.)
Consider `Cc1ccc(Nc2nc3nonc3nc2NC(C)C)cc1C` [Compound 4], for which the “Hill Slope” value is recorded as 11.28. As for `Cc1c(Nc2nc3nonc3nc2Nc2ccc(F)cc2)c(=O)n(-c2ccccc2)n1C` [Compound 5], the figure is 11.29; as for `N#Cc1cccc(NC(=O)Nc2cccc(Cl)c2)c1` [Compound 6], 14.00; as for `N#Cc1ccc(NC(=O)Nc2cccc(Cl)c2)cc1` [Compound 7], 18.06. `O=C(Nc1ccc([N+](=O)[O-])cc1)NC(C(F)(F)F)C(F)(F)F` [Compound 8]: the “Hill Slope” value was 12.60.
